Results reported in paper PMC4657468, “Impaired uptake of conjugated bile acids and hepatitis b virus pres1-binding in na^+-taurocholate cotransporting polypeptide knockout mice” (Hepatology (Baltimore, Md.), 2015).

Experiment: 0.1% UDCA diet supplementation, total serum BA concentrations
Type: in vivo, mouse
Conditions: mean ± SEM, total BA assay

**Q.** Which “Total serum BA concentrations after 0.1% UDCA supplementation” value (WT mice fed UDCA, n = 4) does the source give for `C[C@H](CCC(=O)O)[C@H]1CC[C@H]2[C@@H]3[C@@H](O)C[C@@H]4C[C@H](O)CC[C@]4(C)[C@H]3CC[C@]12C` [UDCA, ursodeoxycholic acid] here?
**A.** 3.4 ± 1.4 µmol/L

**Q.** What about the “Total serum BA concentrations after 1 week of 0.1% UDCA supplementation” value (adult (8- to 10-week-old) Slc10a1−/− mice, n = 8, 0.1% UDCA in chow, 1 week) of the same compound?
**A.** 2528 ± 792.7 µmol/L
